A mixed list of measured activities; the numbers were collected in NIAID ChemDB.

Common to all: tests in culture; organism: Mycobacterium avium

Inhibition is in % at the dose shown (toxicity tests: loss of growth or viability).

SMILES | strain or isolate | method | conditions | tested at | measure | result
CN(C)c1ccc(O)c2c1C[C@H]1C[C@H]3[C@H](N(C)C)C(=O)C(C(N)=O)=C(O)[C@@]3(O)C(=O)C1=C2O | ATCC 25291 | - | - | - | Mean MIC | 32 µg/mL
CC[C@H]1OC(=O)[C@H](C)[C@@H](O[C@H]2C[C@@](C)(OC)[C@@H](O)[C@H](C)O2)[C@H](C)[C@@H](O[C@@H]2O[C@H](C)C[C@H](N(C)C)[C@H]2O)[C@](C)(OC)C[C@@H](C)C(=O)[C@H](C)[C@@H](O)[C@]1(C)O | 3350 | broth dilution / radiometric | pH 6.8 | - | MBC | 32 µg/mL
CCc1cc(C(N)=S)ccn1 | ATCC 25291 | - | - | - | Median MIC | 2.65 µg/mL
CCN(CC)c1nc2c(s1)c1c(O)c3c(O)c(C)c4c(c32)C(=O)[C@@](C)(O/C=C/[C@H](OC)[C@@H](C)[C@@H](OC(C)=O)[C@H](C)[C@H](O)[C@H](C)[C@@H](O)[C@@H](C)/C=C/C=C(/C)C(=O)N1)O4 | 9141 | - | - | - | MBC | 8 µg/mL
CO[C@H]1/C=C/O[C@@]2(C)Oc3c(C)c(O)c4c(O)c(c5c(c4c3C2=O)NC2(CCN(CC(C)C)CC2)N=5)=NC(=O)/C(C)=C\C=C\[C@H](C)[C@H](O)[C@@H](C)[C@@H](O)[C@@H](C)[C@H](OC(C)=O)[C@@H]1C | Isolate 91-0129 | - | - | - | MIC | 0.8 µg/mL
CCn1cc(C(=O)O)c(=O)c2ccc(N3CC(O)C(O)C(O)C3)nc21 | PI4/44 | - | - | - | MIC | >32 µg/mL
CCn1cc(C(=O)O)c(=O)c2cc(F)c(-n3cccc3)cc21 | - | - | pH 6.8 | 3 µg/mL | inhibition | 60%
CN[C@@H]1[C@H](O[C@H]2[C@H](O[C@H]3[C@H](O)[C@@H](O)[C@H](N=C(N)N)[C@@H](O)[C@@H]3N=C(N)N)O[C@@H](C)[C@]2(O)C=O)O[C@@H](CO)[C@H](O)[C@H]1O | ATCC 25291 | - | - | - | Median MIC | 1.5 µg/mL
Cc1cc(C2CCCC2)nc2c(C3CCCC3)cccc12 | - | - | - | 6.25 µg/mL | inhibition | inactive
C=C[C@]1(C)C=C2[C@H](O)C[C@@H]3C(C)(CCC[C@@]3(C)CO)[C@H]2CC1 | ITM1794 | - | - | 100 µg/mL | inhibition | inactive
O=C(O)c1cn(C2CC2)c2c(F)c(N3CCC(N4CCCC4)C3)c(F)cc2c1=O | PI2/8 | - | - | - | MIC | 1 µg/mL
CO[C@H]1/C=C/O[C@@]2(C)Oc3c(C)c(O)c4c(=O)c(c5oc6cc(N7CCN(CC(C)C)CC7)cc(=O)c6nc5c4c3=C2O)NC(=O)/C(C)=C\C=C\[C@H](C)[C@H](O)[C@@H](C)[C@@H](O)[C@@H](C)[C@H](OC(C)=O)[C@@H]1C | 453 | - | - | - | MIC | 0.031 µg/mL
C[C@@H]1CN(c2c(F)c(N)c3c(=O)c(C(=O)O)cn(C4CC4)c3c2F)C[C@H](C)N1 | PI2/8 | - | - | - | MIC | 0.03 µg/mL
N[C@@H]1CONC1=O | ATCC 25291 | - | - | - | Mean MIC | 44 µg/mL
CNC(C)C1CCN(c2c(F)c(N)c3c(=O)c(C(=O)O)cn(C4CC4)c3c2OC)C1 | 14 strains | - | - | - | MIC90 | >32 µg/mL
NC[C@H]1O[C@H](O[C@H]2[C@H](O)[C@@H](O[C@H]3O[C@H](CO)[C@@H](O)[C@H](N)[C@H]3O)[C@H](N)C[C@@H]2N)[C@H](N)C[C@@H]1O | ATCC 25291 | - | - | - | Mean MIC | 4.5 µg/mL

Again, the opening 2 rows:

CN(C)c1ccc(O)c2c1C[C@H]1C[C@H]3[C@H](N(C)C)C(=O)C(C(N)=O)=C(O)[C@@]3(O)C(=O)C1=C2O ; strain or isolate: ATCC 25291 ; measure: Mean MIC ; result: 32 µg/mL
CC[C@H]1OC(=O)[C@H](C)[C@@H](O[C@H]2C[C@@](C)(OC)[C@@H](O)[C@H](C)O2)[C@H](C)[C@@H](O[C@@H]2O[C@H](C)C[C@H](N(C)C)[C@H]2O)[C@](C)(OC)C[C@@H](C)C(=O)[C@H](C)[C@@H](O)[C@]1(C)O ; strain or isolate: 3350 ; method: broth dilution / radiometric ; conditions: pH 6.8 ; measure: MBC ; result: 32 µg/mL

Blank or dashed fields: not listed here. MIC50, MIC90 and the like: level of inhibition, or share of isolates inhibited. Conditions beyond the fields shown may differ between rows. "inactive" is the filed call at that dose; no cut-off is given.